PubChem BioAssay AID624099 | ICCB-Longwood – 2012
The whole screen tested about 21,000 reagents; below is a part drawn at random. 497 of them (2.4%) count as active. 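Higher z means weaker E2 silencing; only reporter increases were scored, and knock-downs that hurt cell survival may mask genuine repressor factors.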 Entries without a mark were called inactive. Reagent sequences are not shown.

- Screen: 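Knock-downs relieving repression by E2 of an HPV18 LCR luciferase reporter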 (primary screen)
- System: human C33A cervical carcinoma cells (HPV-negative) stably expressing BPV1 E2 and an HPV18 LCR luciferase reporter
- Knock-down reagent: siRNA pool against human genes, 40 nM
- Time to read-out: 72 h
- Measured: 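Per-well luciferase luminescence, z-scored on each plate against the plate mean and SD with control wells left out, then averaged across three replicate plates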
- Reading the numbers: mean z-score and z-score: higher = stronger reporter signal, weaker E2 silencing
- Hit rule: 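Mean z ≥ 2 together with z ≥ 2 in two or more of the three replicates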

| Gene | mean z-score | z-score, replicate A | z-score, replicate B | z-score, replicate C |
| --- | --- | --- | --- | --- |
| GTSE1 (G2 and S-phase expressed 1) | 1 | 0.81 | 1 | 1.19 |
| ZNF407-AS1 (ZNF407 antisense RNA 1) | 0.65 | 0.79 | 0.47 | 0.69 |
| KANK1 (KN motif and ankyrin repeat domains 1) | -0.34 | -0.41 | -0.39 | -0.23 |
| DPP9 (dipeptidyl peptidase 9) | -0.19 | -0.34 | -0.09 | -0.15 |
| SHE (Src homology 2 domain containing E) | -0.67 | -1.06 | -0.86 | -0.09 |
| LOC402477 (retired record) | -0.83 | -0.79 | -0.96 | -0.75 |
| YY1 (YY1 transcription factor) | -1.15 | -0.96 | -0.85 | -1.63 |
| IL11RA (interleukin 11 receptor subunit alpha) | 0.47 | 0.7 | 0.38 | 0.34 |
| PPTC7 (protein phosphatase targeting COQ7) | -1.63 | -1.67 | -1.68 | -1.53 |
| ZNRF2 (zinc and ring finger 2) | 0.61 | 0.67 | 0.54 | 0.52 |
| CEBPE (CCAAT enhancer binding protein epsilon) | -0.89 | -0.88 | -0.87 | -0.91 |
| PLAA (phospholipase A2 activating protein) | -0.47 | -0.64 | -0.58 | -0.19 |
| RAB20 (RAB20, member RAS oncogene family) | 0.5 | 0.37 | 0.34 | 0.78 |
| OIT3 (oncoprotein induced transcript 3) | 0.26 | -0.09 | 0.74 | 0.12 |
| INTS12 (integrator complex subunit 12) | 1.07 | 0.65 | 1.21 | 1.34 |
| MPP1 (MAGUK p55 scaffold protein 1) | -0.45 | -0.79 | -0.23 | -0.34 |
| S100A11 (S100 calcium binding protein A11) | 1.12 | 1.17 | 1.52 | 0.67 |
| LOC285889 | -0.59 | -0.5 | -0.64 | -0.62 |
| EEIG2 (EEIG family member 2) | 0.24 | -0.06 | 0.38 | 0.38 |
| GAGE2E (G antigen 2E) | -0.65 | -1.02 | -0.53 | -0.4 |
| TMEM208 (transmembrane protein 208) | -0.15 | -0.19 | -0.5 | 0.23 |
| TMEM9 (transmembrane protein 9) | -1.24 | -1.65 | -0.7 | -1.36 |
| TREML1 (triggering receptor expressed on myeloid cells like 1) | -1.3 | -0.76 | -1.25 | -1.89 |
